## PSTVd stem 15 mutant pool in Nicotiana benthamiana

The measurements come from Wu et al. 2024 (doi:10.1371/journal.ppat.1012142).

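A pool of all variants was put on leaves of three Nicotiana benthamiana plants. Progeny were sequenced from the inoculated region (day 5), the margin of the inoculated leaf (day 10) and systemic leaves (day 12).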

The pool varies stem 15 of the PSTVd intermediate strain in the pattern CUGGAGCGAUNGNNUNNG; wild type is CUGGAGCGAUCGCUUCGG (upper and lower strand joined, each 5' to 3', the first 9 letters being the upper strand).

Values are reads per thousand in the sample; higher means more abundant, 0 means not found.
Each value is the mean of three plants.
"Pool" is the share in the plasmid pool used as inoculum, on the same scale.
The inoculated region was read from the minus strand, the other sites from the plus strand.
With 36,693-63,082 reads a sample, very low values are single reads.
For reference, wild type rose from 10.2 per thousand in the pool to 285, 367, 312 (inoculated region), 785, 865, 782 (leaf margin) and 854, 898, 915 (systemic leaves).
The authors trace changes outside the varied positions to PCR and sequencing errors or to mutation in the plant; presence does not show that a variant is infectious alone.

For CUGGAGCGAUGGUUUAGG (pool 0.954) the result was inoculated region 0.281; leaf margin 0.0419; systemic leaves 0. With CUGGAGCUAUAGGCUGGG (pool 0.0162) the assay gave inoculated region 0.00620; leaf margin 0; systemic leaves 0. CUGGAGCGAUCGCAUGAG (pool 0.921) gave inoculated region 0.265; leaf margin 0.0160; systemic leaves 0. CUGGAGCGAUUGCCUAUG (pool 0.760) read inoculated region 0.261; leaf margin 0.0197; systemic leaves 0. With CUGGAGCGAUCGGUUGUG (pool 3.05) the assay gave inoculated region 2.21; leaf margin 0.0472; systemic leaves 0.0332. For CUGGAGCGAUUGAGUGCG (pool 0.776) the result was inoculated region 0.319; leaf margin 0.0298; systemic leaves 0. CUGGAGCGAUCGCAUUUG (pool 1.05) gave inoculated region 0.242; leaf margin 0.0356; systemic leaves 0. CUGGAGCGAUAGACUAUG (pool 1.12) read inoculated region 0.414; leaf margin 0.0350; systemic leaves 0.

With CUGGAGCGAUAGAUUGCG (pool 0.873) the assay gave inoculated region 0.267; leaf margin 0.0356; systemic leaves 0. CUGGAGCGAUGGGCUAGG (pool 0.889) read inoculated region 0.294; leaf margin 0.0403; systemic leaves 0. CUGGAGCGAUUGGAUAAG (pool 0.695) gave inoculated region 0.288; leaf margin 0.0654; systemic leaves 0.323. With CUGGAGCGAUCGGAUUAG (pool 0.824) the assay gave inoculated region 0.241; leaf margin 0.0298; systemic leaves 0. For CUGGAGCGAUUGGCUGGG (pool 0.695) the result was inoculated region 0.279; leaf margin 0.0350; systemic leaves 0. CUGGAGCGAUUGCCUUCG (pool 0.824) gave inoculated region 1.46; leaf margin 0.312; systemic leaves 0. For CUGGAGCGAUAGUAUACG (pool 0.840) the result was inoculated region 0.288; leaf margin 0.0441; systemic leaves 0. CUGGAGCGAUAGUAUCGG (pool 0.840) gave inoculated region 0.260; leaf margin 0; systemic leaves 0.

CUGGAGCGAUAGUCUCAG (pool 0.857) read inoculated region 1.48; leaf margin 0.331; systemic leaves 0. CAGGAGCGAUUGUUUAUG (pool 0.0162) read inoculated region 0; leaf margin 0; systemic leaves 0. For CUGGAGCGAUGGGUUAUG (pool 0.760) the result was inoculated region 0.247; leaf margin 0.0175; systemic leaves 0. With CUGGAGCGAUCGGAUGUG (pool 1.23) the assay gave inoculated region 0.295; leaf margin 0.0350; systemic leaves 0. CUUGAGCGAUAGACUGAG (pool 0.0162) read inoculated region 0; leaf margin 0; systemic leaves 0. For CUGGAGCGAUAGCGUUGG (pool 0.905) the result was inoculated region 0.232; leaf margin 0.0487; systemic leaves 0. With CUGGAGCGAUAGUCUAGG (pool 0.824) the assay gave inoculated region 0.268; leaf margin 0.0229; systemic leaves 0. With CUGGAGCGAUGGAAUGGG (pool 0.857) the assay gave inoculated region 0.278; leaf margin 0.0260; systemic leaves 0.

With CUGGAGCGAUUGUAUCCG (pool 0.760) the assay gave inoculated region 0.328; leaf margin 0.0367; systemic leaves 0. For CUGGAGCGAUUGGCUCCG (pool 0.889) the result was inoculated region 0.207; leaf margin 0.0387; systemic leaves 0. With CUGGAGCGAUAGGGUUAG (pool 1.28) the assay gave inoculated region 0.578; leaf margin 0.0303; systemic leaves 0. CUGGAGCGAUAGCGUUUG (pool 0.743) gave inoculated region 0.376; leaf margin 0.0441; systemic leaves 0. For CUGGAGCAAUCGCUUCGG (pool 0.0162) the result was inoculated region 0.137; leaf margin 0.366; systemic leaves 0.530.

Extract of 4 entries:

sequence,pool,inoculated region,leaf margin,systemic leaves
CUGGAGCGAUCGGAUUAG,0.824,0.241,0.0298,0
CUGGAGCGAUAGACUAUG,1.12,0.414,0.0350,0
CUGGAGCGAUAGCGUUGG,0.905,0.232,0.0487,0
CUGGAGCGAUCGCAUUUG,1.05,0.242,0.0356,0